# Measured values from paper PMC8469817, “Synthesis and Decontamination Effect on Chemical and Biological Agents of Benzoxonium-Like Salts” (2021).
# How the values were obtained:
# Settings in all cases: 5 min exposure
# [1] = test system: Murine cytomegalovirus (MCMV); assay: Virucidal quantitative suspension test
# SARS-CoV-2 = assay: Virucidal quantitative suspension test
# [2] = test system: Francisella tularensis LVS; assay: Flow cytometry susceptibility assay
SMILES,ΔlogTCID50 (MCMV) ([1]; 0.01%),ΔlogTCID50 (MCMV) ([1]; 0.1%),ΔlogTCID50 (SARS-CoV-2) (SARS-CoV-2; 0.01%),ΔlogTCID50 (SARS-CoV-2) (SARS-CoV-2; 0.1%),elimination of bacteria ([2]; concentration 0.01%) [%],elimination of bacteria ([2]; concentration 0.05%) [%],elimination of bacteria ([2]; concentration 0.1%)
CCCCCCCCCCCCCCCC[N+](CCO)(CCO)Cc1ccccc1.[Cl-],−0.50,> 3.34 ^a,0.84,1.00,–,–,–
CCCCCCCCCCCCCC[N+](CCO)(CCO)Cc1ccccc1.[Cl-],3.34,> 2.34 ^a,–,> 3.51 ^a,29.04 ± 8.80,58.16 ± 7.23,80.47 ± 4.61%
CCCCCCCCCCCC[N+](CCO)(CCO)Cc1ccccc1.[Cl-],–,> 3.34 ^a,–,–,–,–,even better effect compared to ethanol
